Compound potency records, mixed from different reports. Data source: NIAID ChemDB in PubChem.

Common to all: growth or infection tests; species: Mycobacterium tuberculosis

An empty or dashed field is not shown. A number after MIC or MFC names an inhibition level or a share of isolates. Percent inhibition refers to the dose given; in toxicity tests it is the harm to the cells. Neighbouring rows are from separate reports. MIC bound comes from a single tested concentration. Two numbers with a dash give a range or band.

smiles	strain	changes	method	endpoint	dose	result
O=c1nc(-c2cc(F)c(Cl)nc2Cl)ss1	H37Rv	-	broth dilution	MIC90	-	1 µg/mL
O=C(O)c1ccc(NNC(=S)Nc2ccc(F)cc2)cc1O	H37Rv	-	resazurin	MIC90	-	<6.25 µg/mL
Cc1ncc(CO)c(/C=N/NC(=O)c2ccncc2)c1O	H37Rv	-	BACTEC	MIC	-	2.34 µg/mL
CO[C@H]1/C=C/O[C@@]2(C)Oc3c(C)c(O)c4c(=O)c(c5oc6cc(N7CCN(CC(C)C)CC7)cc(=O)c6nc5c4c3=C2O)NC(=O)/C(C)=C\C=C\[C@H](C)[C@H](O)[C@@H](C)[C@@H](O)[C@@H](C)[C@H](OC(C)=O)[C@@H]1C	20 strains	-	-	MIC90	-	0.035 µg/mL
COc1cccc(NC(=O)OCC[NH+]2CCCC2)c1	My 331/88	-	-	MIC	-	>1000 µM
Cc1ccc2[nH]c3c(c2c1)c1ccccc1c1nnc(C(C)(C)C)n13	H37Rv	-	broth dilution / resazurin	MIC	-	12.5 µg/mL
CCN(CC)N1C(=O)[N+](CC)(CC)N=C1[O-]	H37Rv	-	BACTEC	MIC	-	≥12.8 µg/mL
O=c1nc(-c2ccc([N+](=O)[O-])cc2Cl)ss1	H37Rv	-	broth dilution	MIC90	-	8 µg/mL
O=C(Nc1ccc(C(=O)O)c(O)c1)c1ccc(F)cc1	H37Rv	-	resazurin	MIC90	-	<6.25 µg/mL
CCOC(=O)c1c(-c2ccccc2)oc2ccc(O)c(CN3CCC(N4CCCCC4)CC3)c12	mc(^2)7000	-	resazurin / fluorescence	MIC40	-	20 µM
CO[C@H]1/C=C/O[C@@]2(C)Oc3c(C)c(O)c4c(O)c(c5c(c4c3C2=O)NC2(CCN(CC(C)C)CC2)N=5)=NC(=O)/C(C)=C\C=C\[C@H](C)[C@H](O)[C@@H](C)[C@@H](O)[C@@H](C)[C@H](OC(C)=O)[C@@H]1C	20 strains	-	-	MIC90	-	0.035–0.07 µg/mL
COC(=O)C1CC(=O)N(C)c2sc(C)c(C)c2C1=O	H37Rv	-	BACTEC	inhibition	12.5 µg/mL	-4%
CC1COc2c(N3CCN(C)CC3)c(F)cc3c(=O)c(C(=O)O)cn1c23	Erdman	-	broth dilution	MIC	-	0.25 µg/mL
COc1ccnc(NC(=O)NS(=O)(=O)c2cc(NC(=O)CCl)ccc2C(=O)OC(C)C)n1	H37Rv	-	-	MIC	-	>80 µg/mL
Oc1ccc(C2=CC(O)c3c(O)cc(O)cc3O2)cc1	H37Rv	-	BACTEC	MIC	-	>100 µg/mL
CCOc1ccc(NC(=O)OCC[NH+]2CCCC2)cc1	My 331/88	-	-	MIC	-	>1000 µM
NC(=O)c1csc([C@@H]2O[C@H](CO)[C@@H](O)[C@H]2O)n1	H37Rv	-	BACTEC	inhibition	12.5 µg/mL	23%
NNC(=S)Nc1ccc(F)cc1	H37Rv	-	resazurin	MIC90	-	<6.25 µg/mL
CN[C@@H]1[C@H](O[C@H]2[C@H](O[C@H]3[C@H](O)[C@@H](O)[C@H](N=C(N)N)[C@@H](O)[C@@H]3N=C(N)N)O[C@@H](C)[C@]2(O)C=O)O[C@@H](CO)[C@H](O)[C@H]1O	H37Rv	-	broth dilution / resazurin	MIC	-	6.25 µg/mL
CCCN1CCN(c2cc(=O)c3nc4c(oc3c2)c2c(=O)c3c(O)c(C)c5c(c34)=C(O)[C@@](C)(O/C=C/[C@H](OC)[C@@H](C)[C@@H](OC(C)=O)[C@H](C)[C@H](O)[C@H](C)[C@@H](O)[C@@H](C)/C=C/C=C(/C)C(=O)N2)O5)CC1	H37Rv	-	-	MIC	-	0.035 µg/mL
CCCCCCCCCCCC(=O)C1=C(O)[C@H](CCO)NC1=O	H37Rv (ATCC 27294)	-	-	MIC	-	2.5 µg/mL
O=C(NC12CC3CC(CC(C3)C1)C2)C(=O)c1c[nH]c2ccc(Cl)cc12	H37Rv	-	resazurin	inhibition	6.25 µg/mL	-41%
CCCNC(=O)c1c(-c2ccc(O)cc2)oc2ccc(O)c(CCCN3CCC3)c12	mc(^2)7000	-	resazurin / fluorescence	MIC	-	<0.08 µM
CC1=C(/C=C/C(C)=N/NC(=O)c2ccncc2)C(C)(C)CCC1	H37Rv	-	resazurin	inhibition	6.25 µg/mL	97%
COc1ccccc1NC(=O)OCCN1CCOCC1	My 331/88	-	-	MIC	-	1000 µM
O=C(C[n+]1ccn(CC(OCc2ccc(Cl)cc2Cl)c2ccc(Cl)cc2Cl)c1)c1ccc(F)cc1	H37Rv	-	resazurin	MIC bound	-	<6.25 µg/mL
O=C([C@@H](O)CO)N1CC=C(c2c(F)cc(N3C[C@H](COc4ccon4)OC3=O)cc2F)CC1	AZD5847-resistant 4.1	T460C Cys154Arg	-	MIC	-	16 µg/mL
CCCN(C)C(=O)c1c(-c2ccccc2)oc2ccc(O)c(CCCN3CCC3)c12	mc(^2)7000	-	resazurin / fluorescence	MIC	-	0.33 µM
O=c1c(O)c(-c2ccc(O)cc2)oc2cc(O)cc(O)c12	H37Rv	-	BACTEC	MIC	-	>100 µg/mL
Cc1nn(C(=O)c2ccncc2)c2c1C(c1ccccc1[N+](=O)[O-])SC(N)=N2	H37Rv	-	resazurin	MIC	-	6.25 µg/mL
CCN1CN(NC(=O)c2ccncc2)CSC1=S	-	-	-	MIC	-	25 µg/mL
O=c1nc(-c2ccc(F)cc2)ss1	H37Rv	-	broth dilution	MIC90	-	8 µg/mL
[O-][n+]1ccccc1SSc1cccc[n+]1[O-]	NRP	-	resazurin	MIC90	-	<0.039 µg/mL
CCOC(=O)c1cc(-n2nnc3ccccc32)cn1C	H37Rv	-	resazurin	inhibition	6.25 µg/mL	22%
COc1cc(C(O)(CCN(C)C)C(c2cc(-c3ccccc3F)cnc2OC)c2cccc(OC)c2F)cc(OC)n1	H37Rv	-	resazurin	MIC90	-	10 µM
O=S(=O)(OC1CCC2CCC1O2)c1ccc(Br)cc1	H37Rv	-	BACTEC	inhibition	12.5 µg/mL	7%
CNC(=O)c1c(-c2ccc(F)cc2)oc2cc(O)cc(CCN[C@@H](Cc3cnc[nH]3)C(=O)O)c12	mc(^2)7000	-	resazurin / fluorescence	MIC	-	5 µM
CCOC(=O)c1ccc(NC(=O)CCl)cc1S(=O)(=O)NC(=O)Nc1nccc(OC)n1	H37Rv	-	-	MIC	-	>80 µg/mL
COc1cc([C@@](O)(CCN(C)C)[C@@H](c2cc(-c3ccccc3)cnc2OC)c2cccc(OC)c2F)cc(OC)n1	H37Rv	-	resazurin	MIC90	-	10.5 µM
COC(=O)/C(=C/Cc1ccc(OC)cc1)CN=[N+]=[N-]	H37Rv	-	resazurin	MIC	-	>128 µM
CO[C@H]1O[C@@H](Oc2cc(O)c3c(=O)cc(-c4ccc(O)cc4)oc3c2)[C@H](O)[C@@H](O)[C@@H]1O	H37Rv	-	BACTEC	MIC	-	>100 µM
O=C(OC1CCCCC1)c1cc(NC(=S)c2ccccc2F)ccc1Cl	H37Rv	-	BACTEC	MIC bound	-	>12.5 µg/mL
CNC(=O)c1c(-c2ccccc2)oc2ccc(O)c(CCCNCc3nonc3C)c12	mc(^2)7000	-	resazurin / fluorescence	MIC	-	>40 µM
O=c1c2ccccc2c(-c2ccccc2)nn1-c1nc2[nH]c3ccc(Cl)cc3c2c2ccccc12	H37Rv	-	broth dilution / resazurin	MIC	-	12.5 µg/mL
COc1nc2ccc(Br)cc2cc1[C@@H](c1ccccc1)[C@@](O)(CCN(C)C)c1cccc2ccccc12	H37Rv	-	resazurin	MIC90	-	0.54 µM
NNC(=O)c1ccncc1	AZD5847-resistant 8.9	T460C Cys154Arg	-	MIC	-	0.06 µg/mL
COc1cc(C(O)(CCN(C)C)C(c2cc(-c3ccc(Cl)cc3)cnc2OC)c2cccc(OC)c2F)cc(OC)n1	H37Rv	-	resazurin	MIC90	-	1.9 µM
NC(=O)c1cnccn1	H37Rv	-	broth dilution / resazurin	MIC	-	3.125 µg/mL
NC(=O)CN1C(=O)C2C3CCC(O3)C2C1=O	H37Rv	-	BACTEC	MIC bound	-	>12.5 µg/mL
CCCN1CN(NC(=O)c2ccncc2)CSC1=S	-	-	-	MIC	-	25 µg/mL
COc1cc([C@@](O)(CCN(C)C)[C@@H](c2cc(-c3cccnc3)cnc2OC)c2cccc(OC)c2F)cc(OC)n1	H37Rv	-	resazurin	MIC90	-	19.16 µM
COc1cc2cc3c4cc(OC)c(OC)cc4cc[n+]3cc2cc1OC	H37Rv	-	BACTEC	MIC bound	-	>12.5 µg/mL
O=c1nc(-c2ccc(Cl)cc2)ss1	H37Rv	-	broth dilution	MIC90	-	16 µg/mL
COc1cc(C(O)(CCN(C)C)C(c2cc(-c3ccc(C)cc3)cnc2OC)c2cccc(OC)c2F)cc(OC)n1	H37Rv	-	resazurin	MIC90	-	3.7 µM
O=C(O)c1ccc(N2C(=O)CS[N+]23C(=O)Nc2ccc(F)cc23)cc1O	H37Rv	-	resazurin	MIC90	-	<6.25 µg/mL
Cc1cc(=O)n(-c2ccccc2)c(=O)n1-c1nc2ccccc2[nH]1	H37Rv	-	BACTEC	MIC bound	-	>6.25 µg/mL
COc1ccc2[nH]c3nc(-n4nc(-c5ccccc5)c5ccccc5c4=O)c4ccccc4c3c2c1	H37Rv	-	broth dilution / resazurin	MIC	-	12.5 µg/mL
COC(=O)c1ccc(Br)cc1S(=O)(=O)NC(=O)Nc1nccc(C)n1	H37Rv	-	-	MIC	-	40 µg/mL
Clc1ccc2nnnn2n1	H37Rv	-	BACTEC	MIC	-	6.25 µg/mL
O=C(O)c1ccc(N2C(=O)CSC2c2ccc(F)cc2)cc1O	H37Rv	-	resazurin	MIC90	-	<6.25 µg/mL
CCCCCCCCNc1cccc2c1C(=O)c1ccccc1C2=O	H37Rv	-	BACTEC	MIC bound	-	>12.5 µg/mL
COc1ccc(C2=NNc3c4ccccc4c4c5cc(C)ccc5nc-4n3C2)cc1	H37Rv	-	broth dilution / resazurin	MIC	-	0.2 µg/mL
CCOC(=O)c1ccc(NC(=O)CCl)cc1S(=O)(=O)NC(=O)Nc1nccc(C)n1	H37Rv	-	-	MIC	-	>80 µg/mL
O=c1nc(-c2ccc3ccccc3c2)ss1	H37Rv	-	broth dilution	MIC99	-	16 µg/mL
CCOc1ccccc1NC(=O)OCCN1CCOCC1	My 331/88	-	-	MIC	-	>1000 µM
CO[C@H]1/C=C/O[C@@]2(C)Oc3c(C)c(O)c4c(O)c(c(/C=N/N5C(C)CN(Cc6ccccc6)CC5C)c(O)c4c3C2=O)NC(=O)/C(C)=C\C=C\[C@H](C)[C@H](O)[C@@H](C)[C@@H](O)[C@@H](C)[C@H](OC(C)=O)[C@@H]1C	H37Rv	-	BACTEC	MIC	-	2 µg/mL
CCCCCCCOc1ccc(NC(=O)OCCN2CCCCCC2)cc1	My 331/88	-	-	MIC	-	8 µM
COc1ccc(-n2c(SCC(=O)NC(=O)Nc3ccccc3)nc3c(Br)cc(Br)cc3c2=O)cc1	H37Rv	-	BACTEC	inhibition	12.5 µg/mL	81%
COC(=O)/C(=C/Cc1ccc(Cl)cc1Cl)CN=[N+]=[N-]	H37Rv	-	resazurin	MIC	-	>128 µM
CSC(=S)N/N=C/c1ccc[nH]1	H37Rv	-	BACTEC	MIC	-	16 µg/mL
O=c1c(O)c(-c2ccccc2)oc2cc(O)cc(O)c12	H37Rv	-	BACTEC	MIC	-	>100 µg/mL
COc1ccc(C2=NNc3c4ccccc4c4c5cc(Cl)ccc5nc-4n3C2)cc1	H37Rv	-	broth dilution / resazurin	MIC	-	12.5 µg/mL
CCCCOc1cccc(NC(=O)OCCN2CCCCCC2)c1	My 331/88	-	-	MIC	-	32 µM
CCOP(=O)(Nc1ccc(C(=O)OC)c(S(=O)(=O)NC(=O)Nc2nccc(C)n2)c1)OCC	H37Rv	-	-	MIC	-	>80 µg/mL
COc1cc([C@@](O)(CCN(C)C)[C@@H](c2cc(-c3ccc(OC(F)(F)F)cc3)cnc2OC)c2cccc(OC)c2F)cc(OC)n1	H37Rv	-	resazurin	inhibition	1 µM	0%
CCN(CCO)CCNc1ccc(C)c2sc3c(Cl)cccc3c(=O)c12	H37Rv	-	BACTEC	MIC bound	-	≤12.5 µg/mL
CCOC(=O)c1ccc([N+](=O)[O-])cc1S(=O)(=O)NC(=O)Nc1nccc(C)n1	H37Rv	-	-	MIC	-	>80 µg/mL
O=C1Nc2ccc(F)cc2C1=O	H37Rv	-	resazurin	MIC90	-	<6.25 µg/mL
CCCOc1cccc(NC(=O)OCCN2CCCCCC2)c1	My 331/88	-	-	MIC	-	125 µM
NC(N)=NCCN1CC2CCC(CC2)C1.NC(N)=NCCN1CC2CCC(CC2)C1.O=S(=O)(O)O	H37Rv	-	BACTEC	inhibition	12.5 µg/mL	-1%
COc1cc([C@](O)(CCN(C)C)[C@@H](c2cc(-c3ccc(C#N)cc3)cnc2OC)c2cccc(OC)c2F)cc(OC)n1	H37Rv	-	resazurin	MIC90	-	0.98 µM
COC(=O)/C(=C/Cc1ccc(Cl)cc1)CN=[N+]=[N-]	H37Rv	-	resazurin	MIC	-	>128 µM
O=c1oc(-c2ccc(F)cc2)ns1	H37Rv	-	broth dilution	MIC99	-	32 µg/mL

A second listing of 7 rows from above:

smiles | strain | changes | method | endpoint | dose | result
COC(=O)/C(=C/Cc1ccc(Cl)cc1Cl)CN=[N+]=[N-] | H37Rv | - | resazurin | MIC | - | >128 µM
COc1cc([C@@](O)(CCN(C)C)[C@@H](c2cc(-c3cccnc3)cnc2OC)c2cccc(OC)c2F)cc(OC)n1 | H37Rv | - | resazurin | MIC90 | - | 19.16 µM
CO[C@H]1O[C@@H](Oc2cc(O)c3c(=O)cc(-c4ccc(O)cc4)oc3c2)[C@H](O)[C@@H](O)[C@@H]1O | H37Rv | - | BACTEC | MIC | - | >100 µM
O=C(OC1CCCCC1)c1cc(NC(=S)c2ccccc2F)ccc1Cl | H37Rv | - | BACTEC | MIC bound | - | >12.5 µg/mL
CCOC(=O)c1ccc(NC(=O)CCl)cc1S(=O)(=O)NC(=O)Nc1nccc(OC)n1 | H37Rv | - | - | MIC | - | >80 µg/mL
COc1ccc(C2=NNc3c4ccccc4c4c5cc(Cl)ccc5nc-4n3C2)cc1 | H37Rv | - | broth dilution / resazurin | MIC | - | 12.5 µg/mL
CCOC(=O)c1ccc([N+](=O)[O-])cc1S(=O)(=O)NC(=O)Nc1nccc(C)n1 | H37Rv | - | - | MIC | - | >80 µg/mL